Paper PMC10892871 (Viruses, 2024)

Assays:
[1] = test system: Omicron BQ.1.1 SARS-CoV-2 variant; format: cell-based
[2] = test system: wild type B.1 SARS-CoV-2; format: cell-based

Substance	IC50 vs. BQ.1.1 Mean ± SD [1]	IC50 [2] [µg/mL]	IC50 vs. B.1 Mean ± SD [2] [ng/mL]
cilgavimab	active only against the wild type B.1	–	–
bebtelovimab	active only against the wild type B.1	0.03 ± 0.01	33 ± 7
tixagevimab	active only against the wild type B.1	–	–
